According to PubChem BioAssay AID651820 (National Center for Advancing Translational Sciences (NCATS), 2012):
The list shows a part of the results, in another mix than the full data. Inconclusive results are not listed. Some salts and complexes are drawn in separate pieces, as the source files them; their charges need not balance. Active and inactive are the calls of the source. Calls come from the whole dose curve; as a rule, active = well fitted inhibition curve with a large enough effect; inconclusive = small, poorly fitted or top-dose-only effect, or another doubt; inactive = no such curve, though single readings can be large or run the other way.

Assay: qHTS Assay for Inhibitors of Hepatitis C Virus (HCV)
Details: Huh7.5.1 HCVcc-Cre (HCVcc is cell-culture hepatitis C virus) infection, luciferase reporter, 44 h; at 41.8 µM (top of the series)
Excerpt: Hepatitis C virus (HCV) infects about 200 million people in the world. Many infected people progress to chronic liver disease including cirrhosis with a risk of developing liver cancer. To date, there is no effective vaccine for hepatitis C. Current therapy based on interferon is only effective in about half of the patients and is associated with significant adverse effects. The fraction of people with HCV who can complete a successful treatment is estimated to be no more than 10 percent. Recent development of direct-acting antivirals against HCV, such as protease and polymerase inhibitors, is promising but still requires combination with peginterferon and ribavirin for maximal efficacy. In addition, these agents are associated with high rate of resistance and many have significant side effects. Due to the lack of a culture system for infectious HCV, the search for new HCV drugs has been greatly hampered. […] High-throughput screening (HTS) with an infectious HCV system would cover the complete spectrum of potentially druggable targets in all stages of HCV lifecycle, and would have more biological relevance than other cell-based assays. Moreover, targeting several key processes in the viral life cycle may not only increase antiviral efficacy; more importantly, it may also reduce the capacity of the virus to develop resistance to the compound. The goal of this project is to identify novel HCV inhibitors as new therapies for hepatitis C, using a highly sensitive and specific assay platform which is based on a HCV infectious cell culture system established in the laboratory and adapted for high-throughput HCV drug screen. NIH Chemical Genomics Center [NCGC] NIH Molecular Libraries Probe Centers Network [MLPCN] MLPCN Grant: MH095511 Assay Submitter (PI): Jake Liang, NIDDK
The assay will start with plating 1,000 cells/well in 3 µL volume and culture for 4 h. Then 23 nL of compounds from the library collection will be added to each well, followed by adding 2.5 µL of HCVcc-Cre virus (~ 0.5 moi) and further cultured for 44 h before the luciferase assay. A volume of 4.5 µL luciferase substrates will be added to each well and the plates will be incubated at room temperature for 15 min. and then read for 15 sec. for the luciferase activity
% is set by controls: 0 for no effect and ±100 for the full control effect.

| SMILES | activity change, negative = inhibition |
| --- | --- |
| O=[N+]([O-])c1cc([N+](=O)[O-])c(OC2CCCCC2O)c([N+](=O)[O-])c1 (centres undefined) | inactive: 30.8% |
| O=C(OC1CN2CCC1CC2)c1ccc([N+](=O)[O-])cc1 (centres undefined) | inactive: 5.07% |
| COc1ccc2c(c1O)-c1c(O)c(OC)cc3c1[C@H](C2)[N+](C)(C)CC3.O=[N+]([O-])c1cc([N+](=O)[O-])c([O-])c([N+](=O)[O-])c1[O-] | inactive: 9.67% |
| O=C1C(O)=C([N+](=O)[O-])C(=O)C(O)=C1[N+](=O)[O-] | inactive: -1.23% |
| O=P1(N(CCCl)CCCl)SCCCS1 | inactive: 0.736% |
| Cn1c(=O)[nH]cc(N(CCCl)CCCl)c1=O | inactive: -18% |
| O=C(O)c1cccc(Nc2c([N+](=O)[O-])cc([N+](=O)[O-])cc2[N+](=O)[O-])c1 | inactive: -12.7% |
| N/C(=N\O)c1c(N)no[n+]1[O-] | inactive: -11.3% |
| CCOC(=O)C(CC)C1=NC(C)(C)Cc2ccccc21.O=[N+]([O-])c1cc([N+](=O)[O-])c(O)c([N+](=O)[O-])c1 (centres undefined) | inactive: 14.2% |
